A mixed list of measured activities; the numbers were collected in NIAID ChemDB.

Common to all: tests in culture; species: HIV-1; measure: EC50

ECn: concentration that inhibits the pathogen or its effect by n%. An empty or dashed field is not shown. Rows are shuffled and stem from different studies.

| compound | strain | changes | cells | result |
|---|---|---|---|---|
| CCS[C@]12CS(=O)(=O)O[C@@]13[C@@H](CN2)O[C@@H](n1cc(C)c(=O)[nH]c1=O)[C@@H]3O[Si](C)(C)C(C)(C)C | IIIB | - | CEM | 32.5 µM |
| COC[C@@H](c1ccc(C(F)(F)F)cc1)N1CCN(C2(C)CCN(C(=O)c3c(C)ncnc3C)CC2)C[C@@H]1C | R14/S | G514V V535M | TZM-bl | 0.0024 µM |
| COc1cccc2c1nc(-c1ccccc1F)n2Cc1ccncc1 | IIIB | - | MT-4 | 10.9 µg/mL |
| N#Cc1cc(Cl)cc(Oc2c(Br)ccc(CC(=O)Nc3ccc(S(N)(=O)=O)cc3Cl)c2F)c1 | - | V179F/Y181C | MT-4 | 0.0008 µM |
| [N-]=[N+]=N[C@H]1C[C@@H](CO)O[C@H]1n1cnc2c(NC3CCCCC3)ncnc21 | IIIB | - | MT-4 | >125 µg/mL |
| COC(=O)N[C@H]1C(=O)Nc2ccc(Cl)cc2[C@@]1(C#CC1CC1)C(F)(F)F | RF | - | MT-2 | <0.212 µM |
| COc1ccc(-c2nnc(S[C@@H]3O[C@H](COC(C)=O)[C@@H](OC(C)=O)[C@H](OC(C)=O)[C@H]3OC(C)=O)n2N)cc1 | NNRTI-resistant N119 | RT-Y181C | MT-4 | >100 µM |
| COCc1nc(Nc2ccc(C#N)cc2)nc(Nc2c(C)cc(/C=C/C#N)cc2C)c1C(=O)NCCc1ccc(S(N)(=O)=O)cc1 | MDR | - | MT4 CMV-EGFP | 0.191 µM |
| Cc1cn([C@@H]2O[C@@H]3CN[C@@]4(OCC(C)(C)C)CS(=O)(=O)O[C@@]34[C@H]2O)c(=O)[nH]c1=O | IIIB | - | CEM | 22.5 µM |
| COc1ccc(-c2nnc3sc(C(CC(C)C)N4C(=O)c5ccccc5C4=O)nn23)cc1 | IIIB | - | MT-4 | >100 µM |
| COCc1nc(Nc2ccc(C#N)cc2)nc(Nc2c(C)cc(/C=C/C#N)cc2C)c1C(=O)NCCN(C)C | L1001+K103N | - | MT4 CMV-EGFP | 0.155 µM |
| C=C(C)Cn1c(-c2ccccc2F)nc2c(OC)cccc21 | IIIB | - | MT-4 | 0.019 µg/mL |
| Cc1cn([C@@H]2O[C@@H]3CN[C@@]4(OCCOc5ccccc5)CS(=O)(=O)O[C@@]34[C@H]2O)c(=O)[nH]c1=O | IIIB | - | CEM | >250 µM |
| O=C1Nc2ccc(Cl)cc2[C@@](C#CC2CC2)(C(F)(F)F)[C@H]1OCC1CC1 | RF | - | MT-2 | >0.13 µM |
| CCCCN1C(=O)N(Cc2ccc3[nH]nc(N)c3c2)[C@H](Cc2ccccc2)[C@H](O)[C@@H](O)[C@H]1Cc1ccccc1 | HXB2 | - | - | <0.069 µM |
| O=C1Nc2ccc(Cl)cc2[C@@](C#CC2CC2)(C(F)(F)F)[C@H]1OCc1ccccn1 | RF | - | MT-2 | <0.14 µM |
| COc1cccc2c1nc(-c1ccccc1F)n2Cc1ccc(Cl)s1 | IIIB | - | MT-4 | 0.063 µg/mL |
| COCc1nc(Nc2ccc(C#N)cc2)nc(Nc2c(C)cc(/C=C/C#N)cc2C)c1C(=O)NCc1ccncc1 | K103N + Y181C | - | MT4 CMV-EGFP | 0.0148 µM |
| COc1cccc2c1nc(-c1ccccc1F)n2Cc1c(F)cccc1Cl | IIIB | - | MT-4 | 0.014 µg/mL |
| COCc1nc(Nc2ccc(C#N)cc2)nc(Nc2c(C)cc(/C=C/C#N)cc2C)c1C(=O)NCc1ccccn1 | K103N+Y101C | - | MT4 CMV-EGFP | 0.0214 µM |
| Nc1ccc(CO[C@H]2C(=O)Nc3ccc(Cl)cc3[C@@]2(C#CC2CC2)C(F)(F)F)cc1F | RF | - | MT-2 | <0.026 µM |
| Cc1cn([C@@H]2O[C@@H]3CN[C@@]4(C#N)CS(=O)(=O)O[C@@]34[C@H]2O[Si](C)(C)C(C)(C)C)c(=O)[nH]c1=O | IIIB | - | CEM | >50 µM |
| COc1ccc(-c2nnc(SC(c3ccccc3)c3ccccc3)n2N)cc1 | NNRTI-resistant N119 | RT-Y181C | MT-4 | >100 µM |
| Nc1ccc2nc3ccccc3cc2c1 | - | - | Jurkat cells | >50 µM |
| COc1ccc(-c2n[nH]c(=S)n2N)cc1 | NNRTI-resistant N119 | RT-Y181C | MT-4 | >100 µM |
| COCCNC(=O)c1c(COC)nc(Nc2ccc(C#N)cc2)nc1Nc1c(C)cc(/C=C(\C)C#N)cc1C | K103N+Y101C | - | MT4 CMV-EGFP | 0.0195 µM |
| Nc1ccn(N2CC[C@@H](CO)C2)c(=O)n1 | RF | - | MT-4 | >100 µg/mL |
| COc1ccc(Cn2c(-c3ccccc3F)nc3c(OC)cccc32)cc1 | IIIB | - | MT-4 | 2.1 µg/mL |
| C=CCNC(=O)c1c(COC)nc(Nc2ccc(C#N)cc2)nc1Nc1c(C)cc(/C=C/C#N)cc1C | L1001+K103N | - | MT4 CMV-EGFP | 0.0102 µM |
| COc1ccc(-c2nnc(S(=O)(=O)[C@@H]3O[C@H](COC(C)=O)[C@@H](OC(C)=O)[C@H](OC(C)=O)[C@H]3OC(C)=O)n2N)cc1 | NNRTI-resistant N119 | RT-Y181C | MT-4 | >100 µM |
| c1ccc2nc3ccccc3cc2c1 | - | - | CEM | >50 µM |
| Nc1ncnc2c1ncn2[C@@H]1CC[C@H](CO)O1 | LAV | - | PBMC | >100 µM |
| COCc1nc(Nc2ccc(C#N)cc2)nc(Nc2c(C)cc(/C=C/C#N)cc2C)c1C(=O)NCC1CCCO1 | IIIB | - | MT4 CMV-EGFP | 0.00525 µM |
| C/C(=C(/CCO)SS/C(CCO)=C(\C)N(C=O)Cc1cnc(C)nc1N)N(C=O)Cc1cnc(C)nc1N | IIIB | - | MOLT-4/IIIB + MOLT-4 | <125 µM |
| [N-]=[N+]=N[C@H]1C[C@@H](CO)O[C@H]1n1cnc2c(NC3CC3)ncnc21 | IIIB | - | MT-4 | >125 µg/mL |
| Cc1ccc(-c2nnc3sc(CN)nn23)cc1 | NNRTI-resistant N119 | RT-Y181C | MT-4 | >100 µM |
| O=C(C(=O)N1CCN(C(=O)c2ccccc2)CC1)c1c[nH]c2ccccc12 | NL4-3 | - | MT-2 | 5.13 µM |

5 of the rows above, restated:

compound,strain,changes,cells,result
COC(=O)N[C@H]1C(=O)Nc2ccc(Cl)cc2[C@@]1(C#CC1CC1)C(F)(F)F,RF,-,MT-2,<0.212 µM
Cc1cn([C@@H]2O[C@@H]3CN[C@@]4(C#N)CS(=O)(=O)O[C@@]34[C@H]2O[Si](C)(C)C(C)(C)C)c(=O)[nH]c1=O,IIIB,-,CEM,>50 µM
[N-]=[N+]=N[C@H]1C[C@@H](CO)O[C@H]1n1cnc2c(NC3CCCCC3)ncnc21,IIIB,-,MT-4,>125 µg/mL
COCc1nc(Nc2ccc(C#N)cc2)nc(Nc2c(C)cc(/C=C/C#N)cc2C)c1C(=O)NCC1CCCO1,IIIB,-,MT4 CMV-EGFP,0.00525 µM
COCCNC(=O)c1c(COC)nc(Nc2ccc(C#N)cc2)nc1Nc1c(C)cc(/C=C(\C)C#N)cc1C,K103N+Y101C,-,MT4 CMV-EGFP,0.0195 µM